Pooled drug test results. Numbers come from NIAID ChemDB, via PubChem.

All rows: whole-cell or culture tests; species: Mycobacterium avium; endpoint: MIC

Blank or dashed fields: not listed here.

compound,strain,method,conditions,value
COc1ccc2ccc(=O)oc2c1CC(=O)C(C)C,Isolate 733 HIV-positive,,,>200 µg/mL
CCCCC/C=C\C/C=C\CCCCCCCC(=O)O,,,,2000 µM
CC[C@@H](CO)NCCN[C@@H](CC)CO,ATCC 15769,,,14.4 µM
O=C(Nc1ccc(C(F)(F)F)cc1)c1cc(Cl)ccc1OP(=O)(Oc1ccccc1)Oc1ccccc1,MY330/88,,14 d,8 µM
CCn1cc(C(=O)O)c(=O)c2cc(F)c(N3CCNCC3)cc21,PI2/8,,,1 µg/mL
N[C@@H]1CONC1=O,1435,,,8 µg/mL
Cc1ccc([C@]2(C)CC[C@@H]3C[C@@]32C)c(O)c1,ATCC 25291,,,>128 µg/mL
CCCCCCCCCCCCC(C(=O)O)c1ccccc1,,,,1000 µM
c1cncc(-c2ncc(-c3ccc4c(c3)OCO4)o2)c1,Isolate 733 HIV-positive,,,50 µg/mL
O=[N+]([O-])c1ccc(C2=NOC(c3ccc(N4CCN(Cc5ccccc5)CC4)cc3)C2)o1,ATCC 25291,,,12.5 µg/mL
CC[C@H]1OC(=O)[C@H](C)[C@@H](O[C@H]2C[C@@](C)(OC)[C@@H](O)[C@H](C)O2)[C@H](C)[C@@H](O[C@@H]2O[C@H](C)C[C@H](N(C)C)[C@H]2O)[C@](C)(OC)C[C@@H](C)C(=O)[C@H](C)[C@@H](O)[C@]1(C)O,A5,,,0.13 µg/mL
CCCCCCCCCCCCCCCCSC[C@@H]1N[C@H](CO)[C@@H](O)[C@@H]1O,3 to 5 strains,,,16–64 µg/mL
C[C@@H]1CN(c2c(F)c(N)c3c(=O)c(C(=O)O)cn(C4CC4)c3c2F)C[C@H](C)N1,II,,,32 µg/mL
CO[C@@H]1C[C@@H](C[C@H]2CC[C@H](C)[C@H]([C@@H](C)C(=O)O)O2)O[C@]2(O[C@](C)([C@H]3CC[C@@](C)([C@@H]4O[C@@H]([C@H]5O[C@@](O)(CO)[C@H](C)C[C@@H]5C)C[C@@H]4C)O3)C[C@H]2C)[C@@H]1C,Vet 1387,resazurin,,>20 µg/mL
CN[C@@H]1[C@H](O[C@H]2[C@H](O[C@H]3[C@H](O)[C@@H](O)[C@H](N=C(N)N)[C@@H](O)[C@@H]3N=C(N)N)O[C@@H](C)[C@]2(O)C=O)O[C@@H](CO)[C@H](O)[C@H]1O,453,,,>8 µg/mL
C/C=C1/CN2[C@H]3C[C@@H]1[C@@H](CO)[C@@H]2Cc1c3[nH]c2ccc(OC)cc12,Isolate 733 HIV-positive,,,>100 µg/mL
CC(C)(C)c1ccc(CNc2ccc(N3CCOCC3)cc2)cc1,103317,,,2 µg/mL
NCC[C@H](O)C(=O)N[C@@H]1C[C@H](N)[C@@H](O[C@H]2O[C@H](CN)[C@@H](O)[C@H](O)[C@H]2O)[C@H](O)[C@H]1O[C@H]1O[C@H](CO)[C@@H](O)[C@H](N)[C@H]1O,A5,,,1 µg/mL
c1cncc(CSc2nc3ccccc3s2)c1,MY330/88,,,125 µM
O=c1oc2ccccc2c(=O)n1-c1cccc([N+](=O)[O-])c1,MY330/88,,,31 µM
Cc1c(CN2CCN(C)CC2)cc(-c2ccc(Cl)cc2)n1-c1ccc(Cl)cc1,103317,,,0.4 µg/mL
O=c1oc2ccccc2c(=O)n1-c1ccc(Br)cc1,MY330/88,,,31 µM
CN1CCN(c2ccccc2NCc2cccc3ccccc23)CC1,103317,,,>16 µg/mL
O=C(Nc1ccc(Cl)cc1)c1cc(Cl)ccc1OP(=O)(c1ccccc1)c1ccccc1,MY330/88,,14 d,16 µM
Cc1c(CN2CCN(C)CC2)c(CN2CCN(C)CC2)c(C)n1C1CCCCC1,103317,,,>64 µg/mL
C=C1C[C@H](O)[C@H](Br)C(C)(C)[C@]12CC=C(C)CC2,ATCC 25291,,,8 µg/mL
CCn1cc(C(=O)O)c(=O)c2ccc(N3CC(O)C(O)C(O)C3)nc21,PI12/39,,,>32 µg/mL
C[C@]1(COc2ccc(N3CCC(Oc4ccc(OC(F)(F)F)cc4)CC3)cc2)Cn2cc([N+](=O)[O-])nc2O1,ATCC 25291,,,1.6 µg/mL
NC(=S)c1cc(SCc2ccncc2)ccn1,MY330/88,,,32 µM
CCC[C@@H](OC(C)=O)C1=C(Br)[C@@](CI)(OC)OC1=O,ATCC 25291,,,>128 µg/mL
Cc1c(CN2CCN(C)CC2)c(CN2CCN(C)CC2)c(-c2ccc(Cl)cc2)n1Cc1ccccc1,103317,,,>64 µg/mL
O=C(Nc1cccc(F)c1)c1ccccc1O,MY330/88,,,62 µM
O=C1c2cc(Cl)ccc2OP(=O)(c2ccccc2)N1c1ccc(C(F)(F)F)cc1,MY330/88,,7 d,8 µM
COc1cc([C@H]2Oc3c(OC)cc(/C=C/C=O)cc3[C@@H]2COC(C)=O)ccc1O,ATCC 25291,,,128 µg/mL
CCOc1c(N2CCC(C(C)(C)N)C2)c(F)cc2c(=O)c(C(=O)O)cn(C3CC3)c12,PI4/44,,,0.5 µg/mL
c1cc(CSc2ncn[nH]2)ccn1,MY330/88,,,>1000 µM
Cc1c(CN2CCOCC2)c(CN2CCOCC2)c(C)n1C1CCCCC1,103317,,,>64 µg/mL
C=C[C@@](C)(Cl)[C@@H](Br)/C=C/[C@](C)(Cl)CBr,ATCC 25291,,,>128 µg/mL
CCCCCCCC(CCCCCCC)CC(=O)O,,,,2000 µM
CN(C)C/C=C(/c1ccc(-c2ccc(Br)cc2)cc1)c1cccs1,ATCC 15769,,,40.4 µM
c1ccc(CSc2nc3ccccc3o2)nc1,MY330/88,,,250 µM
CCCCN1[C@H](CO)[C@@H](O)[C@H](O)[C@@H]1CO,3 to 5 strains,,,>128 µg/mL
O=C(Nc1ccc(Br)cc1)c1cc(Cl)ccc1OP(=O)(Oc1ccccc1)c1ccccc1,MY330/88,,7 d,16 µM
CC[C@H]1OC(=O)[C@H](C)[C@@H](O[C@H]2C[C@@](C)(OC)[C@@H](O)[C@H](C)O2)[C@H](C)[C@@H](O[C@@H]2O[C@H](C)C[C@H](N(C)C)[C@H]2O)[C@](C)(OC)C[C@@H](C)C(=O)[C@H](C)[C@@H](O)[C@]1(C)O,1017,broth dilution / radiometric,pH 7.4,1 µg/mL
O=C(Nc1ccc(Cl)c(Cl)c1)c1cc(Cl)ccc1OP(=O)(c1ccccc1)c1ccccc1,MY330/88,,7 d,16 µM
CCCCCCCCCSC[C@@H]1N[C@H](CO)[C@@H](O)[C@@H]1O,3 to 5 strains,,,32–128 µg/mL
CO[C@H]1/C=C/O[C@@]2(C)Oc3c(C)c(O)c4c(O)c(c(/C=N/N5CCN(C)CC5)c(O)c4c3C2=O)NC(=O)/C(C)=C\C=C\[C@H](C)[C@H](O)[C@@H](C)[C@@H](O)[C@@H](C)[C@H](OC(C)=O)[C@@H]1C,Isolate 90-1065,,,5 µg/mL
CC[C@H](CO)NC[C@@H]1O[C@H](CO)[C@@H](O)[C@@H]1O,3 to 5 strains,,,>128 µg/mL
COc1ccc(NC(=O)c2ccccc2O)cc1,MY330/88,,,125 µM
CCCCCCn1c(C)c(CN2CCN(C)CC2)c(CN2CCN(C)CC2)c1C,103317,,,>64 µg/mL
CC[C@H]1OC(=O)[C@H](C)[C@@H](O[C@H]2C[C@@](C)(OC)[C@@H](O)[C@H](C)O2)[C@H](C)[C@@H](O[C@@H]2O[C@H](C)C[C@H](N(C)C)[C@H]2O)[C@](C)(OC)C[C@@H](C)C(=O)[C@H](C)[C@@H](O)[C@]1(C)O,1435,,,1 µg/mL
Cc1cc(CN2CCN(C)CC2)c(C)[nH]1,103317,,,>64 µg/mL
O=C(Nc1ccc(Br)cc1)c1ccccc1O,MY330/88,,,31 µM
O=C(c1ccc([N+](=O)[O-])o1)N1CCc2cc(N3CCN(Cc4ccccc4)CC3)ccc2C1,ATCC 25291,,,25 µg/mL
CCCCCCCCCCCCSC[C@H]1[C@@H](O)[C@H](O)[C@@H](CO)N1Cc1ccccc1,3 to 5 strains,,,64–128 µg/mL
CC[C@@H](C(=O)[C@@H](C)[C@@H](O)[C@H](C)[C@@H]1O[C@@H]([C@@H](CC)C(=O)O)CC[C@@H]1C)[C@H]1O[C@@]2(C=C[C@@H](O)[C@@]3(CC[C@@](C)([C@H]4CC[C@](O)(CC)[C@H](C)O4)O3)O2)[C@H](C)C[C@@H]1C,Vet 1387,resazurin,,10 µg/mL
CCNCC1CCN(c2c(F)cc3c(=O)c(C(=O)O)cn4c3c2CCC4C)C1,PI4/44,,,8 µg/mL
c1cncc(CSc2nc3ccccc3o2)c1,MY330/88,,,250 µM
NC1CCN(c2nc3c(cc2F)c(=O)c(C(=O)O)cn3-c2ccc(F)cc2F)C1,II,,,>32 µg/mL
c1ccc(CSc2nc3ccccc3[nH]2)nc1,MY330/88,,,500 µM
O=C1c2cc(Br)ccc2OP(=O)(c2ccccc2)N1c1ccc(C(F)(F)F)cc1,MY330/88,,7 d,8 µM

For reference, 7 entries again:

| compound | strain | method | conditions | value |
|---|---|---|---|---|
| CCCCCCCCCCCCC(C(=O)O)c1ccccc1 |  |  |  | 1000 µM |
| O=C(Nc1cccc(F)c1)c1ccccc1O | MY330/88 |  |  | 62 µM |
| CCOc1c(N2CCC(C(C)(C)N)C2)c(F)cc2c(=O)c(C(=O)O)cn(C3CC3)c12 | PI4/44 |  |  | 0.5 µg/mL |
| O=C(Nc1ccc(Br)cc1)c1cc(Cl)ccc1OP(=O)(Oc1ccccc1)c1ccccc1 | MY330/88 |  | 7 d | 16 µM |
| CN(C)C/C=C(/c1ccc(-c2ccc(Br)cc2)cc1)c1cccs1 | ATCC 15769 |  |  | 40.4 µM |
| CC[C@H]1OC(=O)[C@H](C)[C@@H](O[C@H]2C[C@@](C)(OC)[C@@H](O)[C@H](C)O2)[C@H](C)[C@@H](O[C@@H]2O[C@H](C)C[C@H](N(C)C)[C@H]2O)[C@](C)(OC)C[C@@H](C)C(=O)[C@H](C)[C@@H](O)[C@]1(C)O | A5 |  |  | 0.13 µg/mL |
| c1cncc(CSc2nc3ccccc3s2)c1 | MY330/88 |  |  | 125 µM |

Two numbers with a dash give a range or band. Conditions beyond the fields shown may differ between rows.